For at least one entry, the source does not settle the construct or the ends of the probe.
Tests used:
[1] = molecular target: T1, AphA (Vibrio cholerae) (UniProt Q9X399); experiment: DNase I footprinting; details: 40 mM Tris acetate pH 7.9, 50 mM KCl, 5 mM MgCl2, 500 uM DTT, 12.5 ug/ml herring sperm DNA, recombinant protein, protein details: C-terminal His6 (pET21a), label: 32P end label, probe letters rebuilt from the primers and the genome
T1 sequence: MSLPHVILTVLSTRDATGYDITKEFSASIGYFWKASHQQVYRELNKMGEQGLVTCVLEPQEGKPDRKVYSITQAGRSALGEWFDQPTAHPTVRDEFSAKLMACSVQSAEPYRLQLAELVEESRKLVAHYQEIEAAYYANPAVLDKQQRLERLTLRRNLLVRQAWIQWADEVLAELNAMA

[2] = molecular target: CRP (Vibrio cholerae) (UniProt O34015); experiment: DNase I footprinting; details: 40 mM Tris acetate pH 7.9, 50 mM KCl, 5 mM MgCl2, 500 uM DTT, 12.5 ug/ml herring sperm DNA, recombinant protein, label: 32P end label, probe letters rebuilt from the primers and the genome
[3] = test system: AphA + CRP; experiment: DNase I footprinting; details: 3 uM CRP + 1-3 uM AphA, both sites protected; 40 mM Tris acetate pH 7.9, 50 mM KCl, 5 mM MgCl2, 500 uM DTT, 12.5 ug/ml herring sperm DNA; recombinant protein; protein details: C-terminal His6 (pET21a); label: 32P end label; probe letters rebuilt from the primers and the genome
[4] = test system: AphA + CRP; experiment: EMSA; details: 1 uM AphA + 3 uM CRP, super-shifted complex; 40 mM Tris acetate pH 7.9, 50 mM KCl, 5 mM MgCl2, 500 uM DTT, 12.5 ug/ml herring sperm DNA; EMSA 15 min at 37 C; recombinant protein; protein details: C-terminal His6 (pET21a); label: 32P end label; probe letters rebuilt from the primers and the …
[5] = molecular target: CRP (Vibrio cholerae) (UniProt O34015); experiment: EMSA; details: 3 uM CRP; 40 mM Tris acetate pH 7.9, 50 mM KCl, 5 mM MgCl2, 500 uM DTT, 12.5 ug/ml herring sperm DNA; EMSA 15 min at 37 C; recombinant protein; label: 32P end label; probe letters rebuilt from the primers and the genome
[6] = molecular target: T1, AphA (Vibrio cholerae); experiment: EMSA; details: 1 uM AphA; 40 mM Tris acetate pH 7.9, 50 mM KCl, 5 mM MgCl2, 500 uM DTT, 12.5 ug/ml herring sperm DNA; EMSA 15 min at 37 C; recombinant protein; residues 1-179; protein details: C-terminal His6 (pET21a); label: 32P end label; probe letters rebuilt from the primers and the genome

AATTCCATTTCCCAAAATCCTTTGCAAACCGTGAGAGGATGATGAATCAACTTGCATAGATGCTAACAGCTATCAAAAATGGCGTTGTTTTATAAAGAGAAGTAATGGAAATGA / AGCTTCATTTCCATTACTTCTCTTTATAAAACAACGCCATTTTTGATAGCTGTTAGCATCTATGCAAGTTGATTCATCATCCTCTCACGGTTTGCAAAGGATTTTGGGAAATGG [VC0857-VC0858 intergenic region]
binding result ([1]; 0.25-2 uM AphA, 25 bp protected, residues …): binds

AATTCTAGAGGAGCAACAAAAAATTGACGCTGTGATACTGGTCTCATAATCTGGCGCAAAAGTATTGCATCGATGTGAGATAAGTCCAGACTTATTTCTCTTCGTAAACTATCATTAGCTTCATAAAACAAGCA / AGCTTGCTTGTTTTATGAAGCTAATGATAGTTTACGAAGAGAAATAAGTCTGGACTTATCTCACATCGATGCAATACTTTTGCGCCAGATTATGAGACCAGTATCACAGCGTCAATTTTTTGTTGCTCCTCTAG [tfoX promoter wild type]
binding result ([2]; 0.5 uM CRP, hypersensitive at -83 and -92): binds

AGCTTCATGCTCACTATCACTACCGTTGCATTCTCTTGCTAATCATCAACATGCACATACTTTACCGTTTCGCTAGCTAGAGGTCAGTGATAACCATCAAACCCCTATCTTTTATCTTATGTGATTAAACGCAGCGTGCTACCG / AATTCGGTAGCACGCTGCGTTTAATCACATAAGATAAAAGATAGGGGTTTGATGGTTATCACTGACCTCTAGCTAGCGAAACGGTAAAGTATGTGCATGTTGATGATTAGCAAGAGAATGCAACGGTAGTGATAGTGAGCATGA [cqsS promoter wild type]
binding result [3]: binds | binding result ([2]; 3 uM CRP): binds | binding result ([1]; 1-3 uM AphA, 37 bp footprint, cooperative, residues 1-179): binds | binding result [4]: binds | binding result [5]: binds | binding result [6]: binds

From publication PMC6855506
